Test system: human erythrocytes
Assay: Hemolysis assay, HC50 determination
Type: cell-based
Method: Hemolysis assay (human erythrocytes)–HC50 determination. These were performed as described previously.

SMILES | hemolytic activity against human erythrocytes relative to IC50 values against C. difficile
CC(C)CCc1cn(-c2c(OCC(=O)N[C@H](CCCCN)C(=O)N[C@H](CCCNC(=N)N)Cn3cc(C4CCCCC4)nn3)ccc3ccccc23)nn1.Cl.Cl [Compound 40, (R)-6-Amino-N-((R)-1-(4-cyclohexyl-1H-1,2,3-triazol-1-yl)-5-guanidinopentan-2-yl)-2-(2-((1-(4-isopentyl-1H-1,2,3-triazol-1-yl)naphthalen-2-yl)oxy)acetamido)hexanamide dihydrochloride] | 2 fold
CC(C)CCc1cn(-c2c(OCC(=O)N[C@H](CCCCN)C(=O)N[C@H](CCCNC(=N)N)Cn3cc(Cc4ccccc4)nn3)ccc3ccccc23)nn1.Cl.Cl [Compound 42] | 2 fold

— article PMC8388771, “Cationic Peptidomimetic Amphiphiles Having a N-Aryl- or N-Naphthyl-1,2,3-Triazole Core Structure Targeting Clostridioides (Clostridium) difficile: Synthesis, Antibacterial Evaluation, and an In Vivo C. difficile Infection Model” (Antibiotics, 2021)
